Reference: PubChem BioAssay AID1259414 (Drosophila RNAi Screening Center, 2018)
Screen: 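Host factors increasing or decreasing Wolbachia levels in cultured fly cells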 (primary screen). Cells: Drosophila JW18 cells infected with Wolbachia. Knock-down reagent: long dsRNA against Drosophila genes, 0.25 µg dsRNA per well of a 384-well plate. Timing: 5 days. Conditions: cells persistently infected with Wolbachia before knock-down; no added drug. Measured: 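Automated imaging of bacterial rRNA staining divided by host cell count, reported as plate-normalised robust z-score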. Scale: Wolbachia per cell robust z: higher = more Wolbachia per host cell than the plate typical. Rule for the call: 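Hit when robust z is 1.5 or more, or -1.5 or less, in at least two of three replicates; excludes dsRNAs with several or no targets, genes not expressed in JW18 and well A1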.
In all, the deposit lists about 24,000 reagents; this is a random part of those that have a named target and a result. Over the whole deposit, about 1,210 (5%) were called active. 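Inactive calls also include excluded dsRNAs with several or no targets, genes unexpressed in JW18, and well A1, regardless of score.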 Names joined by + are all predicted targets of the reagent. Reagent sequences are not shown.

| gene knocked down | PubChem SID | Wolbachia per cell robust z, rep 1 | Wolbachia per cell robust z, rep 2 | Wolbachia per cell robust z, rep 3 | call |
| --- | --- | --- | --- | --- | --- |
| salm | SID104183398 | -1.42 | -6.29 | 0.885 | inactive |
| salm | SID104208456 | 1.02 | 0.116 | 0.255 | inactive |
| CG9133 + CG9130 | SID104188416 | -4.9 | -6.07 | -3.35 | inactive |
| CG9133 + CG9130 | SID104188417 | -0.679 | -1.46 | -0.277 | inactive |
| TpnC41C | SID104184708 | -1.79 | 0.352 | -0.221 | inactive |
| CG5254 | SID104198403 | -0.259 | -0.349 | 0.24 | inactive |
| CG34031 | SID104215436 | 0.525 | -1.14 | -0.132 | inactive |
| Rsph4a | SID104184130 | -0.05 | 0.338 | 0.483 | inactive |
| Rsph4a | SID104206831 | -1.17 | 0.359 | 0.537 | inactive |
| CG6044 | SID104184314 | -2.3 | -0.0296 | 0.516 | inactive |
| spdi | SID104198279 | 0.627 | -0.372 | -0.831 | inactive |
| spdi | SID104198280 | 0.727 | 0.463 | 0.531 | inactive |
| Dolk | SID104186935 | -3.12 | 0.135 | 1.03 | inactive |
| CG15784 | SID104197882 | 0.127 | -3.37 | 0.00836 | inactive |
| CG15784 | SID104203929 | 0.661 | 1.64 | -1.12 | inactive |
| AGO1 | SID104185704 | -0.0129 | 1.02 | 0.926 | inactive |
| AGO1 | SID104216734 | 0.821 | 1.01 | 0.0515 | inactive |
| RNaseX25 | SID104191051 | -1.56 | -5.83 | -1.49 | active |
| RNaseX25 | SID104208379 | -2.94 | -4.86 | -10.2 | active |
| Sec22 | SID104207841 | -0.351 | -0.523 | -0.253 | inactive |
| CG17996 + Tsen2 | SID104182442 | -0.899 | 0.00426 | -0.883 | inactive |

2 entries from above, reduced to “Wolbachia per cell robust z, rep 3”:
CG6044 [SID104184314]	0.516
spdi [SID104198279]	-0.831

Continued.
| gene knocked down | PubChem SID | Wolbachia per cell robust z, rep 1 | Wolbachia per cell robust z, rep 2 | Wolbachia per cell robust z, rep 3 | call |
| --- | --- | --- | --- | --- | --- |
| Nagk | SID104195786 | 0.103 | -0.986 | -1.32 | inactive |
| Nagk | SID104218791 | 1.34 | 0.278 | 0.545 | inactive |
| Wsck | SID104193474 | 0.489 | -0.605 | -0.124 | inactive |
| Wsck | SID104207325 | -0.401 | 1.1 | 1.12 | inactive |
| CG15892 + CG15891 | SID104197887 | -0.521 | -0.171 | -0.0788 | inactive |
| CG15892 + CG15891 | SID104197888 | -0.456 | 0.215 | 0.17 | inactive |
| CG7246 | SID104198214 | -0.00486 | 0.308 | 0.331 | inactive |
| Tmtc4 | SID104195494 | -0.118 | 1.01 | 1.21 | inactive |
| Ir7a | SID104197658 | -0.00287 | 0.427 | 0.403 | inactive |
| Obp59a | SID104183952 | -0.301 | -5.98 | -0.622 | inactive |
| crm | SID104198546 | 0.163 | -0.433 | -1.66 | inactive |
| crm | SID104205052 | -0.0611 | 0.124 | -0.00605 | inactive |
| crm | SID104216711 | 0.649 | -3.35 | -0.0096 | inactive |
| CG1951 | SID104195195 | -4.19 | -0.128 | 1.44 | inactive |
| CG15140 | SID104182232 | -1.73 | -1.89 | -0.191 | inactive |
| Bace | SID104181989 | -0.978 | 0.297 | -0.237 | inactive |
| Bace | SID104207267 | -1.39 | -2.49 | -0.408 | inactive |
| pHCl-1 | SID104189680 | 0.242 | 0.794 | 0.54 | inactive |
| pHCl-1 | SID104189783 | 0.164 | -1.43 | -0.306 | inactive |
| pHCl-1 | SID104190381 | -7.01 | -1.48 | 0.929 | inactive |
| pHCl-1 | SID104208346 | -0.00895 | 0.138 | -0.117 | inactive |
| CG17440 + Cfp1 | SID104208470 | -0.379 | -0.572 | -0.925 | inactive |
| Karl | SID104199675 | -3.7 | -0.2 | -1.22 | inactive |
| CG30001 | SID104184983 | -0.351 | -0.0322 | 0.0573 | inactive |
| Nepl20 | SID104194670 | -0.259 | -3.4 | -0.501 | inactive |
